Test results: patent US7144551B2, “Mold remediation system and method” (DH Technologies, L.L.P., priority 2002, dated 2006)

Test system: mold and mold stains
Test: Mold kill and mold stain removal study: vapor from acidified 6.0% NaOCl diluted in water, in a 1400 cc container
Assay type: cell-based
Settings: gas versus liquid bleach
Method: First, the recommended concentration of HOCl for sanitization of surfaces according to the prior art is calculated. Referring to the label of Ultra Chlorox® brand of sodium hypochlorite and noticing that a recommended concentration of NaOCl for mold and mildew stain removal is 3⁄4 cup Ultra Chlorox® plus one gallon of water. Ultra Chlorox® contains 6.00% NaOCl per the label. […] For the mold remediation studies, 5 mL of 6.0% NaOCl was mixed with 50 mL of water, acidified and was placed in a container with a volume of 1400 cc. • 5 mL of 6.0% NaOCl=0.30 g NaOCl • Assuming all of the NaOCl is converted to HOCl: • 0.30 g NaOCl=(0.30 g NaOCl)(52.5 g HOCl)/(74.5 g NaOCl)=0.21 g HOCl This quantity of HOCl is diluted to 1400 cc. Therefore, the maximum concentration of HOCl gas in the container studied is: • 0.21 g HOCl/1400 cc=15×10^-5 g HOCl/cc […]

## OCl [hypochlorous acid]
  concentration needed for mold cidal activity and removal of mold stains as gas, times less than recommended for liquid hypochlorite bleach: at least 13 times
